Data taken from US10221144B2, “Antibacterial compounds having broad spectrum of activity” (priority 2014, dated 2019).

Amino acid sequences for entries named in this document (tags omitted).
UniProt P0AFI2, whole entry: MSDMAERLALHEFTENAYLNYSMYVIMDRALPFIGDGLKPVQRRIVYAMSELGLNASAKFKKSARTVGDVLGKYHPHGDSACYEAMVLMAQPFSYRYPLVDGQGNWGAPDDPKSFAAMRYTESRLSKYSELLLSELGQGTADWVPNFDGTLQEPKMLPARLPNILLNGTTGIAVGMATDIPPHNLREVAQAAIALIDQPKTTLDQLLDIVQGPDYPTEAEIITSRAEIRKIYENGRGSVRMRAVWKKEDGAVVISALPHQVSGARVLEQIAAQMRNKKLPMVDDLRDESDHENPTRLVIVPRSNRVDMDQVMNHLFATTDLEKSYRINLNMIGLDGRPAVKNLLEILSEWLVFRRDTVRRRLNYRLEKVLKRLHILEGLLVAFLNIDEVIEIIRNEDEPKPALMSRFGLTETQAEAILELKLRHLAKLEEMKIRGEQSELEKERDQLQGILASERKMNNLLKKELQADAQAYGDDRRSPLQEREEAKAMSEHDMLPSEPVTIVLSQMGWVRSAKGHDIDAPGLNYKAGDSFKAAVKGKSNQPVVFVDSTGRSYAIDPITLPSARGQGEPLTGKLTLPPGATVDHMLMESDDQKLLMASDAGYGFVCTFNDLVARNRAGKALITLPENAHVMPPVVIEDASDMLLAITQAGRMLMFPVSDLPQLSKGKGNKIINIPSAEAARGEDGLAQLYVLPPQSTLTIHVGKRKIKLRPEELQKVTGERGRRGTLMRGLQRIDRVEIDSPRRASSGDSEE
UniProt P20083, whole entry: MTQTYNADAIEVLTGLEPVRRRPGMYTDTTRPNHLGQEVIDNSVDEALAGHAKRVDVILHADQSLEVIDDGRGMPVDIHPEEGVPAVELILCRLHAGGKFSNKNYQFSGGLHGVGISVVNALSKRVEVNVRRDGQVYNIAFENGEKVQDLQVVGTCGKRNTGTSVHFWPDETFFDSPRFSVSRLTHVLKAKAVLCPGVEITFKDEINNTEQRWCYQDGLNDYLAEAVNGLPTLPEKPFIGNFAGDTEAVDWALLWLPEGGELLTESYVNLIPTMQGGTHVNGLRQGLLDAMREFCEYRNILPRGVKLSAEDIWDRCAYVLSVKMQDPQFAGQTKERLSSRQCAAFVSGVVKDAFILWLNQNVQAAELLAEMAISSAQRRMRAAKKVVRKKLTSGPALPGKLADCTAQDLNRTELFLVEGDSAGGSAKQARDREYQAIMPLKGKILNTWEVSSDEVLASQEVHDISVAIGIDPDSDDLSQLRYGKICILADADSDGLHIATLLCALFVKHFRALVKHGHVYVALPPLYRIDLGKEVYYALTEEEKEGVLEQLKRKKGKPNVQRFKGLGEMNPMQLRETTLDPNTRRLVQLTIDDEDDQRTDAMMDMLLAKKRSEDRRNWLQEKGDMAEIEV
UniProt P0A0K8, whole entry: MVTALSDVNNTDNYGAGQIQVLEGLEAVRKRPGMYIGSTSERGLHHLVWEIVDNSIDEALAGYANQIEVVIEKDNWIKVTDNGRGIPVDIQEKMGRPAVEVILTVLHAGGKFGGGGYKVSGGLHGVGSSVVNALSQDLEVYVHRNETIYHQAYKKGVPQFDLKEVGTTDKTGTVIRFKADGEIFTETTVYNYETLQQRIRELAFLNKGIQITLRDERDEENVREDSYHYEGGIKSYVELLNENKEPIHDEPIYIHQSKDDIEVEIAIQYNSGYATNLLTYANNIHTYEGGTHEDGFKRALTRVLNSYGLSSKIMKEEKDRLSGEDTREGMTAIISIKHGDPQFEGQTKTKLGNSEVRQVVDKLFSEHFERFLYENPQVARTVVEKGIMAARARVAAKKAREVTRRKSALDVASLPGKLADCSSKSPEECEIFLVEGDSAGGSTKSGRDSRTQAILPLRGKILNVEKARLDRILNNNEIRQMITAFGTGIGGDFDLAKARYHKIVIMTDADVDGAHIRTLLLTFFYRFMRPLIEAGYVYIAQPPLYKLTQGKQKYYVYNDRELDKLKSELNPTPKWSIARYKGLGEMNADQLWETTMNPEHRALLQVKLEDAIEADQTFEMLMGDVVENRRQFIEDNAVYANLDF
UniProt P20831, whole entry: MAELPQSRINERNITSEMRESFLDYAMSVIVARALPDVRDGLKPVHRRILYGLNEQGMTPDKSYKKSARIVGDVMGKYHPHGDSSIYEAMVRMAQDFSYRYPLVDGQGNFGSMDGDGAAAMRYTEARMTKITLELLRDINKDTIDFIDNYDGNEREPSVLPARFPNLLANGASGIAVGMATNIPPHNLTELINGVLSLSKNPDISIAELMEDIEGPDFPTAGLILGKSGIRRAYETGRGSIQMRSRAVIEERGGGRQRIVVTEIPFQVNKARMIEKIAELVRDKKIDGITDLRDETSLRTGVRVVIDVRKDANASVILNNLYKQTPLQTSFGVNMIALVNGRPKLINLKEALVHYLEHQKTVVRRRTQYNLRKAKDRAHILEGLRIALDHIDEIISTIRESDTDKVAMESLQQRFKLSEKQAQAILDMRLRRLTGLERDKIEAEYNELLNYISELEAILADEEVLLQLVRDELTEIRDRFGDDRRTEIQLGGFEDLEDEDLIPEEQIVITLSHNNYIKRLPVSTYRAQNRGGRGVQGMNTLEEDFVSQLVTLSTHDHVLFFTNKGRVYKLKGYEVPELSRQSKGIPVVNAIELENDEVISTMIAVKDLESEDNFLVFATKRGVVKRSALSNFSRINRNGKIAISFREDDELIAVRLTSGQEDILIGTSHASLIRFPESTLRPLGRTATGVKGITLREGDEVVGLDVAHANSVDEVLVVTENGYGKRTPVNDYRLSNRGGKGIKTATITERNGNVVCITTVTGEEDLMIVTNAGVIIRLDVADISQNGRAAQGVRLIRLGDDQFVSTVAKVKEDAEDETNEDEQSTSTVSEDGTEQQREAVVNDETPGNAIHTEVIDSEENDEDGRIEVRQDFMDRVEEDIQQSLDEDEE
UniProt P0AES4, whole entry: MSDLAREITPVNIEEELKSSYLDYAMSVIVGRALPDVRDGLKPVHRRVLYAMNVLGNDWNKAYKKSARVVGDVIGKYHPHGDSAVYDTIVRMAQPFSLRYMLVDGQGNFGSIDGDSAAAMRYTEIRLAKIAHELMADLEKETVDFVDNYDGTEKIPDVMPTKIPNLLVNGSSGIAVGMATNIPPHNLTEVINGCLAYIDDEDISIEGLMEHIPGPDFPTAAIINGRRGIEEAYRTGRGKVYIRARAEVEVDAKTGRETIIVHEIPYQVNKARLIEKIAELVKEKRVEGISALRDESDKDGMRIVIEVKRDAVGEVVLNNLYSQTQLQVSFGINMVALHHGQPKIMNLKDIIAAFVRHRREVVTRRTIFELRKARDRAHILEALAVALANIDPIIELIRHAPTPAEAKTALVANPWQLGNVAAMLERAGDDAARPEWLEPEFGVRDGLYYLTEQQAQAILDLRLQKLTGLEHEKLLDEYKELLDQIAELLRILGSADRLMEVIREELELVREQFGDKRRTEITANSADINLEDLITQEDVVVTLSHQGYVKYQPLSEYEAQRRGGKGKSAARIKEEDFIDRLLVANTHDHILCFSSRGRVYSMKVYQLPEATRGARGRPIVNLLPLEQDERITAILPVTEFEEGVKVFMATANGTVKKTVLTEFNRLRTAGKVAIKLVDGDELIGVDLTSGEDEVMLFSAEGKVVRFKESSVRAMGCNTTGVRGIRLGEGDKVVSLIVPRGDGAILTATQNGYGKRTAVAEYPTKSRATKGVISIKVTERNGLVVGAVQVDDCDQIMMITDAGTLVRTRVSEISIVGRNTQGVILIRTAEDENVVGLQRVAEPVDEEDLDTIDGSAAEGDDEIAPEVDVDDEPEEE
UniProt P0C1S7, whole entry: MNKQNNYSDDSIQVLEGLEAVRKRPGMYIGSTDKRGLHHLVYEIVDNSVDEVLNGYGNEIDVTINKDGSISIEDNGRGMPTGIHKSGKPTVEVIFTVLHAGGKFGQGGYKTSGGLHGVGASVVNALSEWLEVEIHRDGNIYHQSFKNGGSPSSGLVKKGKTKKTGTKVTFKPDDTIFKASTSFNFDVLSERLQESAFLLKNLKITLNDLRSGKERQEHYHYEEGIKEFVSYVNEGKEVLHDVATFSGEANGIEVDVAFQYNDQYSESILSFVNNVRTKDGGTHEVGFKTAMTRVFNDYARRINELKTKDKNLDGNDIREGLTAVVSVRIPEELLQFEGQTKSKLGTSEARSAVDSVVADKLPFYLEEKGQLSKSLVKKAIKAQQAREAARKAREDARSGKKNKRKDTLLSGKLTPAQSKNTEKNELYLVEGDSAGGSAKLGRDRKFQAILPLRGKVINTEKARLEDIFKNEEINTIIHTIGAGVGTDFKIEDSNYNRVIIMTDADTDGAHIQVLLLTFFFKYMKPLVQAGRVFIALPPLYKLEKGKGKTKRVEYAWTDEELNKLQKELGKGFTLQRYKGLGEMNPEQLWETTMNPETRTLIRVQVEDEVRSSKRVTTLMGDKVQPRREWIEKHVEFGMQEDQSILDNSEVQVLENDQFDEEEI
UniProt P0C1U9, whole entry: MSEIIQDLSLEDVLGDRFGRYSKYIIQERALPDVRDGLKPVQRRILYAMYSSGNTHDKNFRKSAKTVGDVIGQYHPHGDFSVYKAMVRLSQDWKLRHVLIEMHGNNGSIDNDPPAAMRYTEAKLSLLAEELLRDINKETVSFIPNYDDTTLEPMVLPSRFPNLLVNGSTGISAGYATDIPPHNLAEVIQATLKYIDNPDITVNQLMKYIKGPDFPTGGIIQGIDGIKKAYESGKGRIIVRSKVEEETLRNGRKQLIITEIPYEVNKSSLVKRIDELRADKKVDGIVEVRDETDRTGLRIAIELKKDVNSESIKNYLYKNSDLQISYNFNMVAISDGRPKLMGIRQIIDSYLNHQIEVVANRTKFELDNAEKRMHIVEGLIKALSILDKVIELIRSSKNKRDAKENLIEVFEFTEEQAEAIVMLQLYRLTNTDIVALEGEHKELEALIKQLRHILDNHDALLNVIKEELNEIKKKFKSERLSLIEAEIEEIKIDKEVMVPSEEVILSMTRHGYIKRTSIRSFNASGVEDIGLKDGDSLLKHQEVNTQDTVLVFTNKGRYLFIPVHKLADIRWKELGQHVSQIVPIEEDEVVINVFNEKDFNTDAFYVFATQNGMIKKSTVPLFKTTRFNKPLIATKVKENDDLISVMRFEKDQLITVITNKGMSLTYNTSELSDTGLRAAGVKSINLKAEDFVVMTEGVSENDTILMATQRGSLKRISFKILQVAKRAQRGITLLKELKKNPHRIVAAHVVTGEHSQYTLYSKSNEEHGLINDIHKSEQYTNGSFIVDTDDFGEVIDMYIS

Assays:
[1] = target: E. coli Topoisomerase IV (Escherichia coli, UniProt P0AFI2+P20083); assay: Topoisomerase IV decatenation assay (E. coli); type: biochemical; conditions: for % inhibition Topo IV: n/a = not active
[2] = target: S. aureus DNA gyrase (Staphylococcus aureus, UniProt P0A0K8+P20831); assay: DNA gyrase supercoiling assay (S. aureus); conditions: for % inhibition DNA gyrase: n/a = not active
[3] = target: E. coli DNA gyrase (Escherichia coli, UniProt P0AES4+P0AES6); assay: DNA gyrase supercoiling assay (E. coli); type: biochemical; conditions: for % inhibition DNA gyrase: n/a = not active
[4] = target: S. aureus Topoisomerase IV (Staphylococcus aureus, UniProt P0C1S7+P0C1U9); assay: Topoisomerase IV decatenation assay (S. aureus); type: biochemical; conditions: for % inhibition Topo IV: n/a = not active
Protocol: The above compounds were tested for the inhibition of the enzyme DNA gyrase in a gyrase supercoiling assay and for the inhibition of the enzyme topoisomerase IV in a decatenation assay, in both Gram positive and Gram negative bacteria, according to the following methods.
Both the assays were carried out according to a set-up method modified from the article to Blanche F, et al. “Differential Behaviors of Staphylococcus aureus and Escherichia coli Type II DNA Topoisomerases”, Antimicrob. Agents Chemother., 1996, Vol. 40, No. 12 p. 2714-2720.
The compounds were screened at single concentration (200, 100 or 50 μM), in duplicate.
S. aureus and E. coli Topoisomerase IV decatenation kits (Inspiralis, UK) were used. A master mix with a total volume sufficient for the number of reactions to perform was prepared with the following reagents: 5× assay buffer (50 mM HEPES-KOH (pH 7.6), 100 mM potassium glutamate, 10 mM magnesium acetate, 10 mM DTT, 1 mM ATP, 50 μg/ml albumin), kDNA substrate (200 ng/reaction), RNase-DNase free water. Aliquots of this mix were dispensed in each tube, then 10× compound stock solutions or vehicle control (DMSO), were added in each reaction tube.
Reaction was started with Topoisomerase IV enzyme (0.5 U/reaction) addition.
A sample added with an equal volume of dilution buffer was used as negative control (without enzyme).
The reaction tubes were gentle vortexed and incubated 30 minutes at 37° C. Each reaction was stopped by adding 30 μl of Stop Buffer and 30 μl of chloroform/isoamyl alcohol (24/1), briefly vortexed for 5-10 seconds and centrifuged at 20000×g for 2 minutes. Samples taken from the upper phase were loaded into 1% agarose gel and subjected to electrophoresis for 1 hour at 80V constant voltage in TAE (40 mM Tris-acetate, 2 mM EDTA).
Data acquisition and analysis. Due to the high molecular mass, kDNA could not enter an agarose gel under normal electrophoresis conditions, but remained in the wells. In the presence of Topo IV topoisomerase mini-circles (2.5 Kb) were released from kDNA by decatenation and were quickly and easily resolved in the gel at relatively high voltages.
Bands were visualized by ethidium bromide staining (dil 1:20000) for 30 minutes followed by destaining in distilled water for 10 minutes.
For single concentration screening assay, in order to evaluate the compounds activity on the enzymes, the bands of decatenated DNAs in the gel were photographed by a digital imaging system ImageQuant LAS 4000 (GE Healthcare) according to manufacturer's instructions.
The fluorescent intensity of each band was analyzed by ImageQuant TL software and it was expressed as volume (volume of the uncalibrated quantity of material in the image feature after subtraction of the background intensity by using rolling ball method).
Each band intensity was compared, as percentage, to vehicle sample band intensity, which served as positive control, on the same gel.
Inhibitory activity was expressed as percent of inhibition versus the positive control.
The supercoiled or decatenated DNA bands obtained as described in Example 1 were analysed as follows.
Bands were analyzed by gel documentation equipment (Syngene, Cambridge, UK) and quantitated using Syngene Gene Tools software. Raw gel data (fluorescent band volumes) collected from Syngene, GeneTools gel analysis software were converted to a percentage of the 100% control (the fully supercoiled or decatenated DNA band). […] The IC50 data were calculated by using the global curve fit non-linear regression tool by selecting the Single, 2 Parameter fit function from the Exponential Decay equation category.

[5] = read-out: IC50 Topo IV, concentration-response curve, eight half-log concentrations 0.1 to 300 μM
[6] = read-out: IC50 DNA gyrase, concentration-response curve, eight half-log concentrations 0.1 to 300 μM
[7] = conc. 50 μM, tested form: hydrochloride
[8] = conc. 100 μM, tested form: hydrochloride
[9] = read-out: IC50 DNA gyrase, concentration-response curve, eight half-log concentrations 0.1 to 300 μM, tested form: hydrochloride

Row | SMILES | % inhibition Topo IV ([1]; conc. 50 μM) [%] | IC50 [1, 5] [µM] | % inhibition DNA gyrase ([2]; conc. 50 μM) [%] | % inhibition DNA gyrase ([3]; conc. 50 μM) [%] | IC50 [3, 6] [µM] | % inhibition Topo IV [1, 7] [%] | % inhibition DNA gyrase [2, 7] [%] | % inhibition DNA gyrase [3, 7] [%] | further results
1 | O=c1cc(N[C@H]2CC[C@@H](N3CCN(c4nccc5ccccc45)CC3)C2)c2ccccc2o1 (relative stereo) | 73 | 3.8 | 85 | 93 | 6.8 |  |  |  | IC50 [2, 6]: 13.9 µM
2 | O=c1cc(N[C@@H]2CC[C@@H](N3CCN(c4nccc5ccccc45)CC3)C2)c2ccccc2o1 (relative stereo) | 65 | 6.8 | 81 | 89 | 19.5 |  |  |  | IC50 [2, 6]: 6.3 µM
3 | O=c1cc(NC[C@H](O)CN2CCN(c3nccc4ccc(F)cc34)CC2)c2ccccc2o1 | 100 |  | 100 | 100 |  |  |  |  | % inhibition Topo IV ([4]; conc. 50 μM): 100%
4 | O=c1nc(NC[C@H](O)CN2CCN(c3nccc4ccc(F)cc34)CC2)c2ccccc2o1 | 100 | 2.2 | 100 | 100 | 2.7 |  |  |  | IC50 [2, 6]: 1 µM; % inhibition Topo IV ([4]; conc. 50 μM): 68%; IC50 [4, 5]: 0.6 µM
5 | O=c1cc(NCCCN2CCN(c3nccc4ccccc34)CC2)c2cc(F)ccc2o1 |  |  |  |  |  | 100 | 92 | 100 | % inhibition Topo IV [4, 7]: 89%
6 | CN(C)c1ccc2ccnc(N3CCN(CCCNc4cc(=O)oc5ccccc45)CC3)c2c1 |  |  |  |  |  | 90 | 90 | 93 | 
7 | COc1cc2ccccc2c(N2CCN(CCCNc3cc(=O)oc4ccccc34)CC2)n1 |  |  |  |  |  |  |  |  | % inhibition DNA gyrase [2, 8]: 93%; % inhibition DNA gyrase [3, 8]: 85%; % inhibition Topo IV [4, 8]: 49%
8 | O=c1cc(NCCCN2CCN(c3nccc4ccc(F)cc34)CC2)c2c(o1)CCS(=O)(=O)C2 |  |  |  |  |  | 70 | 76 | 89 | 
9 | O=C1C=C(NCCCN2CCN(c3nccc4ccccc34)CC2)c2ccccc21 |  | 51 |  |  | 12 |  |  |  | % inhibition Topo IV ([1]; conc. 100 μM): 51%; % inhibition DNA gyrase ([2]; conc. 100 μM): 88%; % inhibition DNA gyrase ([3]; conc. 100 μM): 94%
10 | Cc1cccc2ccnc(N3CCN(CCCNc4cc(=O)oc5ccccc45)CC3)c12 |  |  |  |  |  | 76 | 100 | 100 | IC50 ([1]; read-out: IC50 Topo IV, concentration-response curve, eight half-log concentrations 0.1 to 300 μM, tested form: hydrochloride): 1.8 µM; IC50 [2, 9]: 4.8 µM; IC50 [3, 9]: 1 µM
11 | N#Cc1cc2ccccc2c(N2CCN(CCCNc3cc(=O)oc4ccccc34)CC2)n1 |  |  |  |  |  | 53 | 81 | 92 | 

Like-named read-outs stand apart in the source and are kept apart here.
